PubChem BioAssay AID540276 (National Center for Advancing Translational Sciences (NCATS), 2011)
“And” between values parts separate entries of the source, which are not always exact repeats. Equal values may be shown once. Only a part is listed here, and it is no random draw. Results filed as inconclusive are left out. The source made the active and inactive calls. Calls follow the shape of the full dose curve; tested in HEK293 cells.

Test: qHTS for inhibitors of binding or entry into cells for Marburg Virus
Conditions: Marburg virus pseudotyped entry inhibition, cell reporter; at 37.8 µM (top of the series) unless noted
% is scaled to controls: 0 for no effect and ±100 for the full control effect.

Compound | activity change, negative = inhibition
Cc1cc(SC(NC(=O)c2ccccc2)C(Cl)(Cl)Cl)nc(C(C)C)n1 (stereo unspecified) | inactive: -2.47%
ClCCSc1nnc(-c2cccnc2)o1 | inactive: 16.1%
CC(C)NC(=O)NP(=O)(Oc1ccccc1)Oc1ccccc1 | inactive: 0.0512% [at 46.1 µM]
O=C(OC1CN2CCC1CC2)c1cccc2[nH]cnc12 (stereo unspecified) | inactive: 8.13%
CCN(CC)C(=S)SC(NC=O)C(Cl)(Cl)Cl (stereo unspecified) | inactive: 25.3%
O=[As](O)(c1ccc(O)cc1)c1ccccc1O | inactive: 9.4%
O=[N+]([O-])c1ccc(-c2cc([N+](=O)[O-])c(O)c([N+](=O)[O-])c2)cc1 | inactive: 7.97%
Cc1ccc2nc3c(c(C)c2c1)CC(C(Cl)Cl)S3 (stereo unspecified) | inactive: -8.56% [at 46.1 µM]
COc1ccc(N/C(=N/P(=O)(N2CCOCC2)N2CCOCC2)N2CCOCC2)cc1 | inactive: -0.372%
Cc1c2c(nc3ccccc13)SC(C(Cl)Cl)C2 (stereo unspecified) | inactive: 1.77%
Cc1ccc(OCC(=O)O[C@@H]2CN3CCC2CC3)cc1 | inactive: -9.02%
COc1ccc2nc(NP(=O)(c3ccccc3)c3ccccc3)sc2c1 | inactive: -3.98% [at 46.1 µM]
COc1cc(I)ccc1[As](=O)(O)O | inactive: -6.19% [at 46.1 µM]
CCOP(=O)(Nc1cccc2ccccc12)OCC | inactive: 16.1%
O=C(OC1CN2CCC1CC2)c1ccc(Cl)cc1 (stereo unspecified) | inactive: -1.83% [at 46.1 µM]
CS(=O)(=O)c1ccc(Cl)c(NC(=O)COC(=O)C(O)(c2ccccc2)c2ccccc2)c1 | inactive: -25.5%
Cc1cccc(OCC(=O)OC2CN3CCC2CC3)c1 (stereo unspecified) | inactive: 1.19%
N#CCCN(C(=O)COC(=O)C(O)(c1ccccc1)c1ccccc1)c1ccc(F)cc1 | inactive: -1.04%

Compound | activity change, negative = inhibition
CCOP1(=S)c2c(C)nn(CCC#N)c2N=C(c2ccc(F)cc2)N1C (stereo unspecified) | inactive: -4.84%
CN(C(=O)Cc1ccccc1)[C@@H]1CC[C@]2(CCCO2)C[C@H]1N1CCCC1 | inactive: -4.3%
O=[N+]([O-])c1ccc2c(c1)nnn2O | inactive: 4.68%
CCOP1(=S)c2c(C)nn(CCC#N)c2N=C(c2ccccc2F)N1C (stereo unspecified) | inactive: 0.452%
CS(=O)(=O)c1cc([N+](=O)[O-])c2no[n+]([O-])c2c1 | inactive: 7.2% [at 46.1 µM]
Nc1ccccc1[As](=O)(O)c1ccccc1 | inactive: 7.37%
O=C(O)COc1ccc([As](=O)(O)O)cc1[N+](=O)[O-] | inactive: -1.49% [at 46.1 µM]
O=P1(Nc2ncccn2)COc2ccccc2OC1 | inactive: -2.12%
Cc1ccc(OCC(=O)OC2CN3CCC2CC3)cc1 (stereo unspecified) | inactive: -9.02%
O=P1(Nc2ccc(Br)cn2)COc2ccccc2OC1 | inactive: 16.8%
Cc1nn(-c2ccccc2)c2c1P(=O)(N1CCOCC1)N(C)C(c1ccccc1)=N2 (stereo unspecified) | inactive: 14.3% and inactive: -1.13%
COc1cc(C2NCCC3(OCCO3)C2(C)C)cc(OC)c1OC.O=[N+]([O-])c1cc([N+](=O)[O-])c(O)c([N+](=O)[O-])c1 (stereo unspecified) | inactive: -22.1%
O=C(/C=C/c1ccccc1)OC1CN2CCC1CC2 (stereo unspecified) | inactive: -8.26%
CCCC1OP(=O)(Nc2ccccc2)OCC1CC (stereo unspecified) | inactive: -29.2% [at 46.1 µM]
CC(C)/C=N\N=C(\N)N[N+](=O)[O-] | inactive: 16.6% [at 46.1 µM]
CC1(CBr)Cn2c(nc3ccccc3c2=O)S1 (stereo unspecified) | inactive: -19.5%
O=P1(Nc2ccccn2)COc2ccccc2OC1 | inactive: 31.7%
Clc1n[nH]nc1-c1nn[nH][15n]1 | inactive: -2.21%
